From patent US20090053187A1 (priority 2005, published 2009)

System: STI-1
Details: strain STI-1

Row | Structure (SMILES) | Zone of culture growth delay at using discs with antibiotics [mm]
1 | CC[C@H]1OC(=O)[C@H](C)[C@@H](O[C@H]2C[C@@](C)(OC)[C@@H](O)[C@H](C)O2)[C@H](C)[C@@H](O[C@@H]2O[C@H](C)C[C@H](N(C)C)[C@H]2O)[C@](C)(O)C[C@@H](C)C(=O)[C@H](C)[C@@H](O)[C@]1(C)O | 3
2 | O=C(N[C@H](CO)[C@H](O)c1ccc([N+](=O)[O-])cc1)C(Cl)Cl | 4
